# Percent effect of library compounds

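Whole-cell growth test on Mycobacterium tuberculosis, read after 3 days in glucose-containing 7H9 medium; the read-out is not stated. Compounds at 500 µM. Higher reads as more growth inhibition (inferred: compounds with an IC50 in retests scored well above the rest). Size under these conditions: about 18,000 compounds, about 1,400 of them at 50% or above in at least one test.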

The filed quantity is “Percent Effect” (%). How 0% and 100% were set is not recorded. Most values in the screen are low, and negative values occur. This is part of a subset picked to be rich in strong results.

compound,effect
Cc1cc(C(=O)NCCOc2ncccc2Cl)[nH]n1,41.31%
CCC(N)(CC)CNS(=O)(=O)c1cccc(F)c1,-4.013%
Cc1cc(NC(=O)CN(C)C)ccc1C(=O)NC(C)C,6.732%
CCN1CCN(CCOc2ccc(C#N)cc2)CC1,-12.48%
CNC(=O)COc1cccc(OCC2CC2)c1,62.2%
Cc1ccccc1CC(=O)OCCC(N)=O,13.46%
O=C(NC1CCS(=O)(=O)C1)c1cc2cccc(Cl)c2s1 (stereo not given),0.5649%
COCCSCc1cnn(-c2ccccc2)n1,43.15%
Cc1ccc(Cl)cc1NCC(=O)N1CCNC1=O,12.51%
Cc1cnn(CCNCc2ccc3c(c2)OCCO3)c1,79.62%
CC(C)CC(C)N(C)CC(=O)NC(N)=O (stereo not given),-6.861%
CNC(=O)[C@@H](C)Nc1nc(-c2ccccc2)ns1,34.71%
NCC1CN(Cc2ccccc2)CCO1 (stereo not given),19.98%
CC(O)CN(C(=O)NCCCn1ccnc1)C(C)C (stereo not given),-0.764%
CC(C(=O)NCc1ccc(Cl)s1)S(C)(=O)=O (stereo not given),23.16%
CCOC(=O)NCCC(=O)NCc1ccccn1,19.14%
Brc1cc2c(cc1CN1CCCNCC1)OCO2,71.81%
c1cc(-c2nnc[nH]2)ccn1,-12.45%
CC(C)n1nc(C(=O)N(C)C)c2ccccc2c1=O,21.48%
Cc1cc(CN2CCN(C(=O)N(C)C)CC2)on1,14.8%
Cc1ccccc1CC(=O)NCCC1CCNC1 (stereo not given),-4.549%
CCOC(=O)C(C)Cn1cc(Br)cn1 (stereo not given),10.69%
CCCn1nnc(NCc2ccc(OC)cc2)n1,87.51%
O=C(NC1CCN(C2CCOCC2)CC1)c1cnc[nH]1,9.015%
Cc1cccnc1NCCNC1CSCCSC1,65.28%
CC(CO)(CO)NCc1cnn(-c2ccc(Br)cc2)c1,62.68%
Cc1nn(C)c(C(=O)NCCCn2ccnc2)c1Cl,7.428%
O=C(CSc1ncn[nH]1)Nc1ncc(Br)s1,39.16%
CCn1c(C(=O)N2CCC(O)CC2)cc2ccccc21,31.54%
CNc1snc(C)c1C(=O)Nc1ncccc1O,-10.66%
CN(Cc1ccccc1)C(=O)CC1CCNC1 (stereo not given),38.77%
CN(CCc1ccc(Br)cc1)C(=O)CCCN,70.64%
O=C(CCn1cc(Br)cn1)NCc1cccs1,63.75%
Cc1nc(C(=O)NCCc2nncn2C(C)C)cs1,10.56%
Cn1cc(C(N)CN)cn1 (stereo not given),-0.2174%
Cc1nc(O)c(C(=O)NCc2ncc[nH]2)cc1Br,-0.9838%
CC1(C)CN(C(=O)c2cc(Br)c[nH]2)CCO1,69.49%
COCCCN(C)S(=O)(=O)c1ccc(Br)cn1,71.94%
CN(Cn1nnc2ccccc2c1=O)C1CCCC1,17.41%
Cc1nc(CN2CCN(C(=O)c3cnc[nH]3)CC2)cs1,13.33%
O=C(CN(CC1CCOC1)C1CC1)NC1CC1 (stereo not given),0.002987%
CCCc1nnc(NCCc2ccnn2C)o1,13.11%
Cc1ccsc1CNC(=O)C(NC(N)=O)C(C)C (stereo not given),2.253%
c1ccc(CC2CCNCC2)nc1,-16.32%
NC(=O)C1(N)CCOCC1,-3.953%
CC[S+]([O-])c1ccccc1C(=O)Nc1ccncc1 (stereo not given),13.15%
NC1CCN(c2ncccc2Cl)C1 (stereo not given),86.08%
NS(=O)(=O)NCC1(c2ccc(Br)cc2)CCOCC1,18.71%
O=C(CC1COCCN1)NCCCc1ccccc1F (stereo not given),25.03%

Once more, the final 4:

{"compound": "CC[S+]([O-])c1ccccc1C(=O)Nc1ccncc1", "stereo": "stereo not given", "effect": 13.15}
{"compound": "NC1CCN(c2ncccc2Cl)C1", "stereo": "stereo not given", "effect": 86.08}
{"compound": "NS(=O)(=O)NCC1(c2ccc(Br)cc2)CCOCC1", "effect": 18.71}
{"compound": "O=C(CC1COCCN1)NCCCc1ccccc1F", "stereo": "stereo not given", "effect": 25.03}

From ChEMBL document CHEMBL3988442, “University of Dundee, Small-Polar-MMV Screening Library” (2021).